Measurements from US9617289B2, “RSV antiviral compounds” (JANSSEN R&D IRELAND, priority 2012, dated 2017).
Structures can show the parent of a compound that is named as a salt. The amount applied is not stated for every result.

Each compound was assayed on HeLa cells (assay: Cytotoxicity in HeLa cells (ATP content, ATPlite kit); SI calculated as CC50/EC50). Conditions: SI is calculated as CC50/EC50, three days.
Format: cell-based
`N#CCCCn1c(CN2C(=O)C3(CCN(C(=O)OC4COC4)CC3)c3ccncc32)cc2cc(Cl)ccc21` [Compound 80, oxetan-3-yl 1′-((5-chloro-1-(3-cyanopropyl)-1H-indol-2-yl)-methyl)-2′-oxo-1′,2′-dihydro[spiropiperidine-4,3′-pyrrolo-[2,3-c]pyridine]-1-carboxylate] showed an SI greater than 319161. `O=C1CC2(C1)C(=O)N(Cc1nc3cc(Cl)ccc3n1CCCCF)c1ccccc12` [Compound 158, 1-{[5-Chloro-1-(4-fluorobutyl)-1H-benzimidazol-2-yl]methyl}-3H-spiro[cyclobutane-1,3′-indole]-2′,3(1′H)-dione] was tested, and the SI_TOX-HELA_wt was 78873. Compound `CC(C)(O)C(=O)N1CC[C@@]2(C1)C(=O)N(Cc1nc3cc(Cl)ccc3n1CCCS(C)(=O)=O)c1ccccc12` [Compound 121, (R)-1-({5-Chloro-1-[3-(methylsulfonyl)propyl]-1H-benzimidazol-2-yl}methyl)-1′-(2-hydroxy-2-methylpropanoyl)spiro[indole-3,3′-pyrrolidin]-2(1H)-one] has an SI_TOX-HELA_wt greater than 11676.2. With `CS(=O)(=O)CCCn1c(CN2C(=O)C3(CNC3)c3ccccc32)nc2cc(Cl)ccc21` [Compound 5, 1′-({5-chloro-1-[3-(methylsulfonyl)propyl]-1H-benzimidazol-2-yl}methyl)spiro[azetidine-3,3′-indol]-2′(1′H)-one] the SI was greater than 20325. For `CS(=O)(=O)CCCn1c(CN2C(=O)C3(CCOCC3)c3ccccc32)nc2cc(Cl)ccc21` [Compound 40, 1-((5-chloro-1-(3-(methylsulfonyl)propyl)-1H-benzo[d]-imidazol-2-yl)methyl)-2′,3′,5′,6′-tetrahydrospiro[indoline-3,4′-pyran]-2-one], the SI was greater than 43461. Compound `CC(=O)N[C@H]1C[C@]2(C1)C(=O)N(Cc1nc3cc(Cl)ccc3n1CCCC#N)c1ccccc12` [Compound 145, N-((1s,3s)-1′-((5-chloro-1-(3-cyanopropyl)-1H-benzo[d]imidazol-2-yl)methyl)-2′-oxospiro[cyclobutane-1,3′-indolin]-3-yl)acetamide] has an SI_TOX-HELA_wt greater than 330255. For `O=C1N(Cc2nc3cc(Cl)ccc3n2CCCC(F)(F)F)c2ccccc2C12CCNCC2` [Compound 49, 1-((5-chloro-1-(4,4,4-trifluorobutyl)-1H-benzo[d]imidazol-2-yl)methyl) spiro[indoline-3,4′-piperidin]-2-one], the SI was 2615. Compound `CS(=O)(=O)CCCn1c(CN2C(=O)C3(CCOCC3)c3cnccc32)nc2cc(Cl)ccc21` [Compound 41, 1-((5-chloro-1-(3-(methylsulfonyl)propyl)-1H-benzo[d]-imidazol-2-yl)methyl)-2,3,5,6-tetrahydrospiro[pyran-4,3′-pyrrolo[3,2-c]pyridin]-2′(1′H)-one] has an SI greater than 2230.95. `CC(C)(C)OC(=O)N1CC2(C1)C(=O)N(Cc1nc3cc(Cl)ccc3n1CCCS(C)(=O)=O)c1ccccc12` [Compound 4, tert-butyl 1′-({5-chloro-1-[3-(methylsulfonyl)propyl]-1H-benzimidazol-2-yl}methyl)-2′-oxo-1′,2′-dihydro-1H-spiro[azetidine-3,3′-indole]-1-carboxylate] showed an SI of 654998. `CC(C)(O)C(=O)N1CCC2(CC1)C(=O)N(Cc1cc3cc(Cl)ccc3n1CCCCF)c1cnccc12` [Compound 106, 1′-{[5-Chloro-1-(4-fluorobutyl)-1H-indol-2-yl]methyl}-1-(2-hydroxy-2-methylpropanoyl)spiro[piperidine-4,3′-pyrrolo-[2,3-c]pyridin]-2′(1′H)-one] gave an SI_TOX-HELA_wt of 80390. With `CC(=O)N1CCC2(CC1)C(=O)N(Cc1cc3cc(Cl)ccc3n1CCCC#N)c1cnccc12` [Compound 64, 4-(2-((1-acetyl-2′-oxospiro[piperidine-4,3′-pyrrolo[2,3-c]-pyridin]-1′(2′H)-yl)methyl)-5-chloro-1H-indol-1-yl)butane-nitrile] the SI was greater than 379778. For `CC(C)(O)C(=O)N1CC2(C1)C(=O)N(Cc1cc3cc(Cl)ccc3n1CCCS(C)(=O)=O)c1ccccc12` [Compound 152, 1′-({5-Chloro-1-[3-(methylsulfonyl)propyl]-1H-indol-2-yl}methyl)-1-(2-hydroxy-2-methylpropanoyl)spiro[azetidine-3,3′-indol]-2′(1′H)-one], the SI_TOX-HELA_wt was 31147. Compound `N#CCCCn1c(CN2C(=O)C3(CCNCC3)c3ccncc32)nc2cc(Cl)ccc21` [Compound 84, 4-(5-chloro)-2-((2′-oxospiro[piperidine-4,3′-pyrrolo[2,3-c]-pyridin]-1′(2′H)-yl)methyl)-1H-benzo[d]imidazol-1-yl)butanenitrile hydrochloride] has an SI greater than 176673. In the case of `CC(=O)N1CCC2(CC1)C(=O)N(Cc1nc3cc(Cl)ccc3n1CCCC#N)c1cnccc12` [Compound 83, 4-(2-((1-acetyl-2′-oxospiro[piperidine-4,3′-pyrrolo[2,3-c]-pyridin]-1′(2′H)-yl)methyl)-5-chloro-1H-benzo[d]imidazol-1-yl)butanenitrile], the SI is reported as greater than 655360. `CC(=O)N1CCC2(CC1)C(=O)N(Cc1cc3cc(Cl)ccc3n1CCCS(C)(=O)=O)c1cnccc12` [Compound 56, 1-acetyl-1′-({5-chloro-1-[3-(methylsulfonyl)propyl]-1H-indol-2-yl}methyl)spiro[piperidine-4,3′-pyrrolo[2,3-c]pyridin]-2′(1′H)-one] showed an SI greater than 298202. `CC(=O)N1CC2(C1)C(=O)N(Cc1nc3cc(Cl)ccc3n1CCCC#N)c1ccccc12` [Compound 88, 4-(2-((1-acetyl-2′-oxospiro[azetidine-3,3′-indolin]-1′-yl)-methyl)-5-chloro-1H-benzo[d]imidazol-1-yl)butanenitrile] was tested, and the SI was greater than 253700. In the case of `CC(C)COC(=O)N1CC2(C1)C(=O)N(Cc1nc3cc(Cl)ccc3n1CCCC(F)(F)F)c1ccccc12` [Compound 45, isobutyl 1′-((5-chloro-1-(4,4,4-trifluorobutyl)-1H-benzo[d]-imidazol-2-yl)methyl)-2′-oxospiro[azetidine-3,3′-indoline]-1-carboxylate], the SI is reported as greater than 227520. In the case of `CC(C)(C)OC(=O)N1CCC2(CC1)C(=O)N(Cc1nc3cc(Cl)ccc3n1CCCC#N)c1cnccc12` [Compound 53, tert-butyl 1′-((5-chloro-1-(3-cyanopropyl)-1H-benzo[d]-imidazol-2-yl)methyl)-2′-oxo-1′,2′-dihydrospiro[piperidine-4,3′-pyrrolo[2,3-c]pyridine]-1-carboxylate], the SI is reported as greater than 305014. `N#CCCCn1c(CN2c3ccccc3[C@]3(C[C@@H](N)C3)C2=O)nc2cc(Cl)ccc21` [Compound 148, 4-(2-(((1r,3r)-3-amino-2′-oxospiro[cyclobutane-1,3′-indolin]-1′-yl)methyl)-5-chloro-1H-benzo[d]imidazol-1-yl)butanenitrile] gave an SI_TOX-HELA_wt of 10550. `CC(C)CCn1c(CN2C(=O)C3(CCN(C(=O)OC(C)(C)C)CC3)c3ccncc32)cc2cnccc21` [Compound 97, tert-Butyl 1′-{[1-(3-methylbutyl)-1H-pyrrolo[3,2-c]pyridin-2-yl]methyl}-2′-oxo-1,2′-dihydro-1H-spiro[piperidine-4,3′-pyrrolo[2,3-c]pyridine]-1-carboxylate] gave an SI_TOX-HELA_wt of 31764. Work on `CC(C)(O)C(=O)N1CCC2(CC1)C(=O)N(Cc1cc3cc(Cl)ccc3n1CCCC#N)c1cnccc12` [Compound 86, 4-(5-chloro-2-((1-(2-hydroxy-2-methylpropanoyl)-2′-oxospiro[piperidine-4,3′-pyrrolo[2,3-c]pyridin]-1′(2′H)-yl)methyl)-1H-indol-1-yl)butanenitrile] yielded an SI greater than 349849. With `CC(C)C(=O)N1CC2(C1)C(=O)N(Cc1nc3cc(Cl)ccc3n1CCCS(C)(=O)=O)c1ccccc12` [Compound 28, 1′-({5-chloro-1-[3-(methylsulfonyl)propyl]-1H-benzimidazol-2-yl}methyl)-1-(2-methylpropanoyl)-spiro[azetidine-3,3′-indol]-2′(1′H)-one] the SI was greater than 660861. In the case of `CC(=O)N1CCC2(CC1)C(=O)N(Cc1nc3cc(Cl)ccc3n1CCCS(C)(=O)=O)c1cnccc12` [Compound 42, 1-acetyl-1′-((5-chloro-1-(3-(methylsulfonyl)propyl)-1H-benzo[d]imidazol-2-yl)methyl)spiro[piperidine-4,3′-pyrrolo-[2,3-c]pyridin]-2′(1′H)-one], the SI is reported as greater than 655360. `CC(C)(O)C(=O)N1CC2(C1)C(=O)N(Cc1cc3cc(Cl)ccc3n1CCCCO)c1ccccc12` [Compound 166, 1′-{[5-Chloro-1-(4-hydroxybutyl)-1H-indol-2-yl]methyl}-1-(2-hydroxy-2-methylpropanoyl)spiro[azetidine-3,3′-indol]-2′(1′H)-one] was tested, and the SI_TOX-HELA_wt was 64805.
